{
  "source": "patent US8486381B2",
  "about": "“Methods of modulating intestinal fluid balance” (Amgen Inc., priority 2005, dated 2013)",
  "test_system": "cyclic AMP",
  "assay": "Secretagogue-stimulated cyclic AMP accumulation in colonic crypt cell suspensions",
  "type": "cell-based",
  "conditions": "0.1 mM Ca^2+; to control levels",
  "data": [
    {"smiles": "COc1cccc([C@@H](C)NCCCc2ccccc2Cl)c1.Cl", "note": "[Compound A, N-(3-[2-chlorophenyl]-propyl)-R-α-methyl-3-methoxybenzylamine HCl]", "values": [
      {"measurement": "Effect on cholera toxin induced cyclic AMP production", "value": "attenuates cyclic AMP in a doze-dependent manner"}
    ]}
  ]
}
